Data as given in US7578996B2, “Cetylpyridinium chloride as an antimicrobial agent in ophthalmic compositions” (Advanced Medical Optics, Inc., priority 2004, dated 2009).

Assays:
[1] = Antimicrobial uptake and release by contact lens, Acuvue
[2] = Antimicrobial uptake and release by contact lens, Purevision
[3] = cycle 1, 2 ml saline for 9 hours
[4] = cycle 1, 3.5 ml test solution for 15 hours
[5] = cycle 2, 2 ml saline for 9 hours
[6] = cycle 2, 3.5 ml test solution for 15 hours
[7] = cycle 3, 2 ml saline for 9 hours
[8] = cycle 3, 3.5 ml test solution for 15 hours

## CCCCCCCCCCCCCC(=O)NCCCN(C)C [MAPD, myristamidopropyl dimethylamine]
[1]; [3]
  Release from lens: 2.5 µg
[1]; [4]
  Accumulation in Lens: 7.9 µg
[1]; [5]
  Release from lens: 3.9 µg
[1]; [6]
  Accumulation in Lens: 10.1 µg
[1]; [7]
  Release from lens: 3.6 µg
[1]; [8]
  Accumulation in Lens: 12.4 µg
[2]; [3]
  Release from lens: 0.2 µg
[2]; [4]
  Accumulation in Lens: 18.3 µg
[2]; [5]
  Release from lens: 0.2 µg
[2]; [6]
  Accumulation in Lens: 33.9 µg
[2]; [7]
  Release from lens: 0.6 µg
[2]; [8]
  Accumulation in Lens: 48.1 µg
